Values quoted from earlier work in article PMC8795881.

Target: His37 (UniProt position 37, IIGILHLILWI)
Test: NMR (solid-state)
Conditions: drug-free channel in lipid bilayer

Substance: Matrix protein 2 (M2 proton channel), transmembrane domain peptide M2(22-46) / M2TM (Influenza A virus (strain not stated))
- pKa: 8.2
